This is an account of results in article PMC9435674, “Delineating the activity of the potent nicotinic acetylcholine receptor agonists (+)-anatoxin-a and (−)-hosieine-A” (2022).

Sequences of proteins named here, by UniProt entry; tags and fusion partners are left off. Residues count along the entry.
UniProt Q8WSF8, 20-236 A155V/A60V limits assumed: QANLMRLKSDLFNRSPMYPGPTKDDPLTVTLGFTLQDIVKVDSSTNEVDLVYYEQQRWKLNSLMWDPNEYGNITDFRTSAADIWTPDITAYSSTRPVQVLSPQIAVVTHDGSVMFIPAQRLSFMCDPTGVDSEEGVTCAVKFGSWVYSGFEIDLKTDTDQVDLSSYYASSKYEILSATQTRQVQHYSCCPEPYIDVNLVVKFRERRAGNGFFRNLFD

In series [1] the target is T1, AcAChBP (Aplysia californica, UniProt Q8WSF8, A155V/A60V). The conditions noted are these: ITC; ref Dawson et al., 2019; cited from earlier work.
Series [2] has as its target T1, AcAChBP. Kind of series: Isothermal titration calorimetry (ITC) of ligand binding to AcAChBP. The conditions noted are these: for Kd: read-out: K d1 (dissociation constant from ITC), 25°C, n = 3, standard error.
Series [3] deals with T1, AcAChBP. Put plainly: Equilibrium tryptophan fluorescence-quenching assay. The conditions noted are these: read-out: K d2 (dissociation constant from fluorescence measurements), emission 337 nm, room temperature, n = 3, standard error.
The conditions of series [4]: ref Koskinen & Rapoport, 1985; cited from earlier work.

`O=C1C[C@@H]2OCC=C3CN4CC[C@]56c7ccccc7N1[C@H]5[C@H]2[C@H]3C[C@H]46`: the “entropic contribution to binding (−TΔS)” value in series [1] was -1.9 ± 0.5 kcal/mol.

As for `CC(=O)C1=CCCC2CCC1N2` (racemic), the values for the Kd in series [2] and in series [3] were 300 nM and 150 nM, respectively. In series [4], the pK a was 9.4.

With `CC(=O)C1=CCCC2CCC1N2` (single isomer, unassigned), in series [2] (25°C, n = 3, standard error), the “N (sites), molar ratio” value is on record as 0.5 ± 0.02; the ΔG was -8.9 ± 0.1 kcal/mol; the ΔH was -12.5 ± 0.2 kcal/mol; the “−TΔS” value turned out to be 3.6 ± 0.2 kcal/mol. In addition, the Kd in series [2] was 300 nM. In series [3], the Kd was 150 nM.
